Measured values from several laboratories, pooled; numbers as filed in NIAID ChemDB.

Shared fields: tests in culture; agent: HIV-1; read-out: fold resistance

Fold resistance: result on the changed form divided by that on wild type. Neighbouring rows are from separate reports.

CCC(=O)c1ccc(F)c([C@@H]2C[C@@H]2NC(=O)Nc2ccc(C#N)cn2)c1O ; strain or isolate: LAI ; cell line: TZM-bl ; method: β-galactosidase / luminescence ; mutations: NNRTI-resistant (RT P225H) ; value: 1.1
C/C=C/CSc1cc(NC(=S)c2ccsc2C)ccc1Cl ; strain or isolate: NL4-3 ; cell line: CEM + CEM-SS ; method: p24 ; mutations: RT-K101E ; value: 12
Cc1ccc(C2CC2)c(-c2cc(F)c3c(c2C)CCCO3)c1[C@H](OC1CC1)C(=O)O ; strain or isolate: NL4-3 ; cell line: MT-4 ; method: luminescence ; mutations: NRTI/NNRTI resistant K103N/Y181C ; value: 1
O=C1Nc2ccc(F)c(F)c2[C@@](/C=C/C2CC2)(C(F)(F)F)N1 ; mutations: RT-Y188C ; value: <6.32
Cc1cc(C#N)cc(C(=O)c2cc(Cl)ccc2OCC(=O)Nc2ccc(S(N)(=O)=O)nc2C)c1 ; strain or isolate: HXB2 ; cell line: HeLa + HELA CD4+ ; method: β-galactosidase ; mutations: RT-V106I Y181C ; value: ~1
N#Cc1cc(Cl)cc(Oc2c(Br)ccc(CC(=O)Nc3ccc(S(N)(=O)=O)cc3Cl)c2F)c1 ; cell line: MT-4 ; mutations: E138K ; value: 2
Cc1cc2[nH]cnc2cc1NC(=O)COc1ccc(Cl)cc1C(=O)c1cc(F)cc(C(F)(F)F)c1 ; strain or isolate: HXB2 ; cell line: HeLa + HELA CD4+ ; method: β-galactosidase ; mutations: RT-L100I ; value: ~1
O=C1Nc2ccc(F)c(F)c2[C@@](C#CC2CC2)(C(F)(F)F)N1 ; mutations: RT-K103N P225H ; value: 38.9
CC(C)=CCOc1cc(NC(=S)c2ccoc2C)ccc1Cl ; strain or isolate: Diphenyl sulfone-resistant (RT-Y181C) ; cell line: CEM + CEM-SS ; method: cytopathic effect / XTT ; mutations: RT-Y181C ; value: 90
Cc1cc(C#N)cc(C(=O)c2cc(Cl)ccc2OCC(=O)Nc2ccc(S(N)(=O)=O)cc2C)c1 ; strain or isolate: HXB2 ; cell line: HeLa + HELA CD4+ ; method: β-galactosidase ; mutations: RT-K103N V108I ; value: ~1
Cc1ccc(C2CC2)c(-c2ccc3c(c2)CCCO3)c1[C@H](OC(C)(C)C)C(=O)O ; strain or isolate: NL4-3 ; cell line: MT-4 ; method: luminescence ; mutations: NRTI/NNRTI resistant NLAY351753 ; value: 1
C[C@H]1CO[C@@H]2Cn3cc(C(=O)NCc4ccc(F)cc4F)c(=O)c(O)c3C(=O)N12 ; strain or isolate: NL4-3 ; cell line: CBMC ; method: RT activity ; mutations: E138K/R263K ; value: 2.1
Cc1cc(S(N)(=O)=O)ccc1NC(=O)COc1ccc(Cl)cc1C(=O)c1cc(F)cc(F)c1 ; strain or isolate: HXB2 ; cell line: HeLa + HELA CD4+ ; method: β-galactosidase ; mutations: RT-G190E ; value: ~1
CC(C)=CCOc1cc(NC(=S)c2ccsc2C)ccc1Cl ; strain or isolate: NL4-3 (RT V179D) ; cell line: CEM + CEM-SS ; method: cytopathic effect / XTT ; mutations: RT-V179D ; value: 1

2 of the rows above, restated:

CC(C)=CCOc1cc(NC(=S)c2ccsc2C)ccc1Cl ; strain or isolate: NL4-3 (RT V179D) ; cell line: CEM + CEM-SS ; method: cytopathic effect / XTT ; mutations: RT-V179D ; value: 1
CCC(=O)c1ccc(F)c([C@@H]2C[C@@H]2NC(=O)Nc2ccc(C#N)cn2)c1O ; strain or isolate: LAI ; cell line: TZM-bl ; method: β-galactosidase / luminescence ; mutations: NNRTI-resistant (RT P225H) ; value: 1.1